## Share of PSTVd loop 15 variants by leaf site

PSTVd intermediate strain, loop 15: wild type GGAAACCGCUACUAC, pool pattern GGAAACCGNNNNNNC; upper and lower strand joined, each 5' to 3', the first 7 letters being the upper strand, closing pairs included.

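Three N. benthamiana plants were inoculated with the whole mutant pool. Samples came from the inoculated region at 5 days, the leaf margin at 10 and upper systemic leaves at 12.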

Numbers give reads per thousand; 0 = not seen among the reads, higher = more abundant. Each site shows the three plants. "Pool" is the share in the plasmid pool used as inoculum, on the same scale. The inoculated region was read from the minus strand, the other sites from the plus strand.

sequence	pool	inoculated region	leaf margin	systemic leaves
GGAAACCGAGACACC	0.320	0.115 0.129 0.133	0.0162 0 0.0601	0 0 0
GGAAACCGAGACAGC	0.208	0.213 0.225 0.209	0.0485 0.0223 0.0200	0.0161 0 0
GGAAACCGAGACAUC	0.160	0.0819 0.0803 0.0762	0 0 0	0 0 0
GGAAACCGAGACCAC	0.352	0.311 0.305 0.248	0.0162 0.0445 0.100	0.0483 0 0
GGAAACCGAGACCCC	0.208	0.0983 0.0643 0.0952	0 0.0223 0.0200	0 0 0.0228
GGAAACCGAGACCGC	0.336	0.0655 0.0482 0.0762	0 0 0.0200	0 0 0
GGAAACCGAGACCUC	0.224	0.0983 0.0482 0.0952	0 0.0223 0.0200	0.0161 0 0
GGAAACCGAGACGAC	0.272	0.0819 0.0803 0.114	0.0162 0 0	0 0 0
GGAAACCGAGACGCC	0.176	0.0491 0.0643 0.0762	0 0 0	0.0161 0 0
GGAAACCGAGACGGC	0.144	0.0655 0.0803 0.114	0 0 0	0 0 0
GGAAACCGAGACGUC	0.224	0.0819 0.0321 0.133	0.0162 0.0223 0	0 0 0
GGAAACCGAGACUAC	0.288	0.229 0.257 0.476	0.0970 0.156 0.100	0.0644 0.0454 0.114
GGAAACCGAGACUCC	0.240	0.0819 0.177 0.152	0 0 0.0200	0 0.0151 0
GGAAACCGAGACUGC	0.192	0.246 0.337 0.248	0.113 0 0.200	0.0966 0 0
GGAAACCGAGACUUC	0.256	0.295 0.337 0.228	0.113 0.200 0.100	0.0161 0.0756 0.0684
GGAAACCGAGAGAAC	0.224	0.393 0.177 0.343	0.0970 0.134 0.0200	0.0322 0.0756 0.0684
GGAAACCGAGAGACC	0.256	0.0328 0.129 0.209	0.0323 0 0.0601	0.0161 0 0
GGAAACCGAGAGAGC	0.240	0.115 0.0964 0.114	0.0323 0.0223 0.0200	0 0 0
GGAAACCGAGAGAUC	0.144	0.360 0.450 0.514	0.178 0.178 0.100	0.0322 0.0605 0.114
GGAAACCGAGAGCAC	0.240	0.213 0.353 0.400	0.129 0.0668 0.0601	0.0483 0.0908 0.0912
GGAAACCGAGAGCCC	0.144	0.0983 0.0964 0.0571	0 0 0.0200	0 0 0
GGAAACCGAGAGCGC	0.176	0.328 0.305 0.400	0.0162 0.0223 0.0601	0.0161 0 0
GGAAACCGAGAGCUC	0.160	0.147 0.112 0.171	0 0.0223 0	0 0 0
GGAAACCGAGAGGAC	0.176	0.311 0.241 0.209	0.129 0.0668 0.120	0 0.0605 0.0684
GGAAACCGAGAGGCC	0.256	0.0328 0.0482 0.0762	0 0 0.0200	0 0 0
GGAAACCGAGAGGGC	0.368	0.213 0.321 0.305	0 0 0.0401	0.0322 0 0
GGAAACCGAGAGGUC	0.272	0.573 0.771 0.552	0.0323 0.0668 0.280	0.0161 0 0
GGAAACCGAGAGUAC	0.352	0.262 0.305 0.362	0.178 0.0891 0.160	0.0966 0 0
GGAAACCGAGAGUCC	0.208	0.262 0.386 0.305	0.0970 0.0891 0.100	0.0644 0.0756 0.0912
GGAAACCGAGAGUGC	0.176	0.278 0.289 0.381	0.113 0.0445 0.120	0.0322 0.121 0.0912
GGAAACCGAGAGUUC	0.304	0.426 0.418 0.419	0.113 0.0891 0.100	0.0322 0.0756 0.0684
GGAAACCGAGAUAAC	0.256	0.344 0.321 0.419	0.146 0.0891 0.140	0.0483 0 0
GGAAACCGAGAUACC	0.272	0.115 0.0803 0.0190	0.0162 0 0.0401	0 0 0
GGAAACCGAGAUAGC	0.240	0.131 0.112 0.133	0.0162 0 0	0 0 0
GGAAACCGAGAUAUC	0.160	0.442 0.241 0.381	0.113 0.0891 0.120	0.0483 0 0
GGAAACCGAGAUCAC	0.224	0.229 0.257 0.381	0.0647 0.111 0.160	0 0 0
GGAAACCGAGAUCCC	0.176	0.0655 0.0643 0.0952	0 0.0223 0	0 0 0
GGAAACCGAGAUCGC	0.160	0.246 0.0321 0.0381	0 0 0	0 0 0
GGAAACCGAGAUCUC	0.160	0.115 0.0643 0.248	0 0 0.0200	0 0 0
GGAAACCGAGAUGAC	0.176	0.115 0.145 0.0571	0 0 0.0200	0 0 0
GGAAACCGAGAUGCC	0.160	0.147 0.0803 0.0952	0.0162 0.0445 0	0 0 0
GGAAACCGAGAUGGC	0.224	0.115 0.129 0.0571	0 0 0.0200	0 0 0
GGAAACCGAGAUGUC	0.240	0.475 0.321 0.248	0 0 0.0200	0 0 0
GGAAACCGAGAUUAC	0.224	0.901 0.916 0.800	0.194 0.134 0.280	0.0483 0.0151 0.0228
GGAAACCGAGAUUCC	0.208	0.0819 0.0643 0.0952	0.0162 0.0223 0.0200	0 0 0
GGAAACCGAGAUUGC	0.320	0.442 0.530 0.400	0.0808 0.0445 0.140	0.0644 0.0151 0.0684
GGAAACCGAGAUUUC	0.288	0.475 0.289 0.362	0.129 0.0668 0.160	0.0322 0.0756 0.0912
GGAAACCGAGCAAAC	0.288	0.147 0.225 0.267	0 0 0.0401	0.0161 0 0.0228
GGAAACCGAGCAACC	0.304	0.0655 0.0964 0.0952	0 0 0	0 0 0
GGAAACCGAGCAAGC	0.208	0.0819 0.0643 0.0952	0.0162 0 0	0 0 0
GGAAACCGAGCAAUC	0.240	0.0819 0.0643 0.0762	0.0162 0.0445 0.0401	0 0 0
GGAAACCGAGCACAC	0.272	0.0655 0.145 0.152	0 0 0.0200	0 0 0
GGAAACCGAGCACCC	0.304	0.0655 0.0964 0.133	0.0162 0 0.0601	0 0 0
GGAAACCGAGCACGC	0.176	0.0819 0.129 0.114	0 0 0.0200	0 0 0
GGAAACCGAGCACUC	0.176	0.213 0.241 0.228	0 0 0.0200	0.0322 0 0
GGAAACCGAGCAGAC	0.272	0.0819 0.129 0.0381	0 0 0.0200	0 0 0
GGAAACCGAGCAGCC	0.128	0.0819 0.0321 0.133	0 0 0	0.0161 0 0
GGAAACCGAGCAGGC	0.128	0.115 0.0803 0.0762	0.0162 0.0223 0.0401	0 0 0
GGAAACCGAGCAGUC	0.320	0.164 0.177 0.267	0.0323 0.0223 0.0200	0 0 0
GGAAACCGAGCAUAC	0.224	0.180 0.209 0.400	0.162 0.178 0.100	0.0322 0 0
GGAAACCGAGCAUCC	0.272	0.0983 0.129 0.133	0.0323 0 0	0 0 0
GGAAACCGAGCAUGC	0.304	0.131 0.0643 0.0381	0 0.0223 0	0 0 0
GGAAACCGAGCAUUC	0.288	0.328 0.418 0.190	0.0162 0 0.0200	0.0161 0 0
GGAAACCGAGCCAAC	0.304	0.0983 0.0482 0.0762	0.0162 0 0	0 0 0
GGAAACCGAGCCACC	0.320	0.0328 0.0803 0.0762	0 0 0.0401	0 0 0
GGAAACCGAGCCAGC	0.0960	0.115 0.0643 0.114	0 0 0.0401	0 0 0
GGAAACCGAGCCAUC	0.160	0.0983 0.129 0.114	0.0162 0.0223 0	0 0 0
GGAAACCGAGCCCAC	0.224	0.147 0.145 0.190	0 0 0.0200	0 0 0
GGAAACCGAGCCCCC	0.224	0.0819 0.145 0.0952	0.0162 0.0223 0	0 0 0

The opening 9 entries, copied out:

sequence,pool,inoculated region,leaf margin,systemic leaves
GGAAACCGAGACACC,0.320,0.115 0.129 0.133,0.0162 0 0.0601,0 0 0
GGAAACCGAGACAGC,0.208,0.213 0.225 0.209,0.0485 0.0223 0.0200,0.0161 0 0
GGAAACCGAGACAUC,0.160,0.0819 0.0803 0.0762,0 0 0,0 0 0
GGAAACCGAGACCAC,0.352,0.311 0.305 0.248,0.0162 0.0445 0.100,0.0483 0 0
GGAAACCGAGACCCC,0.208,0.0983 0.0643 0.0952,0 0.0223 0.0200,0 0 0.0228
GGAAACCGAGACCGC,0.336,0.0655 0.0482 0.0762,0 0 0.0200,0 0 0
GGAAACCGAGACCUC,0.224,0.0983 0.0482 0.0952,0 0.0223 0.0200,0.0161 0 0
GGAAACCGAGACGAC,0.272,0.0819 0.0803 0.114,0.0162 0 0,0 0 0
GGAAACCGAGACGCC,0.176,0.0491 0.0643 0.0762,0 0 0,0.0161 0 0

The authors trace changes outside the varied positions to PCR and sequencing errors or to mutation in the plant; presence does not show that a variant is infectious alone. Samples held 43,870 to 66,106 reads, so the smallest values rest on one or two reads. Wild type was 33.9 per thousand in the pool and the most common sequence in every sample (inoculated region 202, 200, 159; leaf margin 724, 746, 710; systemic leaves 856, 883, 880).

Data from the supplement of Wu et al. 2024, doi:10.1371/journal.ppat.1012142.